Assay results as given in patent publication US8828930B2, “Hepatitis C virus NS3 protease inhibitors” (Merck Sharp & Dohme Corp., priority 2009, dated 2014).

Sequences of proteins named here, by UniProt entry; tags and fusion partners are left off. A change or cut given only in a name is not applied to a line headed by its entry. Residues count along the entry.
UniProt P26663, 1658-1711 partner limits assumed: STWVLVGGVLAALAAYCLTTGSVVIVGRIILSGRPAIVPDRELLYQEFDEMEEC
UniProt P26663, 1027-1657 limits assumed: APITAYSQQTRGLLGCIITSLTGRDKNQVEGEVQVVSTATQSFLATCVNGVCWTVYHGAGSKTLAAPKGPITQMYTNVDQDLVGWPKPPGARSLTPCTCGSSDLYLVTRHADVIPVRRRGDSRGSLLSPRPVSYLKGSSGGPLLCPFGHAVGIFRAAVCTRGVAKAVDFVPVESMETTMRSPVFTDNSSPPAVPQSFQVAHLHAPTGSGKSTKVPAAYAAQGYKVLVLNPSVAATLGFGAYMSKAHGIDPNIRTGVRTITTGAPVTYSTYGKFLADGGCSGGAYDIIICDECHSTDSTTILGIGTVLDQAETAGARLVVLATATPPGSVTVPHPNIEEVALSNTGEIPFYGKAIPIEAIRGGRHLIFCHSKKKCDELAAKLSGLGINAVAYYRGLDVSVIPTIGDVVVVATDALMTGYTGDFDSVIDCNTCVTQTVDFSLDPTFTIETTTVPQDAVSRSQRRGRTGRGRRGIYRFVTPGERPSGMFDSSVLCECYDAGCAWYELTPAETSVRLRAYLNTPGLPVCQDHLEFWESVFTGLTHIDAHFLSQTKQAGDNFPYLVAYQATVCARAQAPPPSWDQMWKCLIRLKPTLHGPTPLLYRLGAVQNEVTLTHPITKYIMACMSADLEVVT
UniProt P26663, 1027-1657 A1182V limits assumed: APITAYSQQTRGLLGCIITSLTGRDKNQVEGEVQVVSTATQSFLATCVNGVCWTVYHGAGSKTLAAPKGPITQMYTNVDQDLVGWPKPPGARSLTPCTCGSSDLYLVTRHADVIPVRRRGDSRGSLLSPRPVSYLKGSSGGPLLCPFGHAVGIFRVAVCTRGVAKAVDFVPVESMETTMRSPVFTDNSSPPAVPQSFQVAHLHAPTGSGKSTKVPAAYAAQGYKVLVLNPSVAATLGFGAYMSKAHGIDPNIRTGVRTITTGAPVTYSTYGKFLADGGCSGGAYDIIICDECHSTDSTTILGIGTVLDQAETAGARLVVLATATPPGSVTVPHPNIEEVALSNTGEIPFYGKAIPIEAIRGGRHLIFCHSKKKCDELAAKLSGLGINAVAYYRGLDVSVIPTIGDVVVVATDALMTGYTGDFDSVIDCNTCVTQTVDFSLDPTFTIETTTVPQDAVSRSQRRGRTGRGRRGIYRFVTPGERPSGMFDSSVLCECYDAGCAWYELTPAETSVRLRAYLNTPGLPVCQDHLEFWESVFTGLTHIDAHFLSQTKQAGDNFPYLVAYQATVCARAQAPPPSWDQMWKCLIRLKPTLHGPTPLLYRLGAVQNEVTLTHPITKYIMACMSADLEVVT
UniProt Q81258, 1033-1663 limits assumed: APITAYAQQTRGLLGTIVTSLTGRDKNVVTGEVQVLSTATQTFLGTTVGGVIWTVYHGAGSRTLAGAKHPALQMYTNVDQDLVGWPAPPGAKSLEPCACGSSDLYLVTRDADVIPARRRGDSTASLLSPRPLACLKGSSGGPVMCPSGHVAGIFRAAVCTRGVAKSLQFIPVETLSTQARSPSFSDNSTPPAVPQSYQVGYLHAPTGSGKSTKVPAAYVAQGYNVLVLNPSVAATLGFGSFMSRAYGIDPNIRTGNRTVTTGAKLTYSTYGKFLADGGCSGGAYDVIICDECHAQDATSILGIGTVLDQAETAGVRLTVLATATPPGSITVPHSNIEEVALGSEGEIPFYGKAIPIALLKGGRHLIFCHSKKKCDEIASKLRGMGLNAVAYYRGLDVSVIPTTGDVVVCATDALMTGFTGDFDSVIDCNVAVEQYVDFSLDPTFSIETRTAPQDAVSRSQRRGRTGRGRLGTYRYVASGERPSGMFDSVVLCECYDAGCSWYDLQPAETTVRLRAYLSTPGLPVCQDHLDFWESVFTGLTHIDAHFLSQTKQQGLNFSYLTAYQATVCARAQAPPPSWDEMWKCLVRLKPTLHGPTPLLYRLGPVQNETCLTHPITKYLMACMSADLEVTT
UniProt Q81258, 1664-1717 partner limits assumed: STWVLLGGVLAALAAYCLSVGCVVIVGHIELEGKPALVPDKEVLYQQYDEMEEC

Key:
NS3/4A protease gt 1b = NS3/4A protease gt 1b (Hepatitis C virus genotype 1b, UniProt P26663); assay: HCV NS3 protease time-resolved fluorescence (TRF) assay, NS3/4A inhibitory activity (Ki), gt 1b; format: biochemical; details: read-out: gt 1b Ki, NS3/4A enzyme
Procedure: (§1) The HCV NS3 protease inhibitory activity of the present compounds may be tested using assays known in the art. One such assay is HCV NS3 protease time-resolved fluorescence (TRF) assay as described below and in WO 2006/102087. Other examples of such assays are described in, for example, WO 2005/046712. HCV NS3 protease inhibitors, such as those described herein have a Ki less than 50 μM, such as less than 10 μM, and less than 100 nM. Ki is determined by an NS3 protease assay. The assay is performed in a final volume of 100 μl in assay buffer containing 50 mM HEPES, pH 7.5, 150 mM NaCl, 15% glycerol, 0.15% TRITON X-100, 10 mM DTT, and 0.1% PEG 8000. NS3 protease is preincubated with various concentrations of inhibitors in DMSO for 30 minutes. […] Product fluorescence is detected using either a VICTOR V2 or FUSION fluorophotometer (PERKIN ELMER LIFE AND ANALYTICAL SCIENCES) with excitation at 340 nm and emission at 615 nm with a 400 μs delay. […]
(§2) This NS3 protease assay was performed in a final volume of 100 μl assay buffer containing 50 mM HEPES, pH 7.5, 150 mM NaCl, 15% glycerol, 0.15% TRITON X-100, 10 mM DTT, and 0.1% PEG 8000. […] Product fluorescence was detected using either a V1CTOR V2 or FUSION fluorophotometer (PERKIN ELMER LIFE AND ANALYTICAL SCIENCES) with excitation at 340 nm and emission at 615 nm with a 400 us delay. […]

[1] = molecular target: NS3/4A protease gt 1b A156V (Hepatitis C virus genotype 1b, UniProt P26663, A1182V); assay: HCV NS3 protease time-resolved fluorescence (TRF) assay, NS3/4A inhibitory activity (Ki), gt 1b A156V; format: biochemical; details: read-out: gt 1b A156V Ki; NS3/4A enzyme, genotype 1b A156V mutant
Procedure: as §1, §2

NS3/4A protease gt 3a = NS3/4A protease gt 3a (Hepatitis C virus genotype 3a, UniProt Q81258); assay: HCV NS3 protease time-resolved fluorescence (TRF) assay, NS3/4A inhibitory activity (Ki), gt 3a; format: biochemical; details: read-out: gt 3a Ki, NS3/4A enzyme
Procedure: as §1, §2

HCV gt 1b replicon = assay: HCV replicon assay, compound inhibitory potency (Replicon EC50)
Procedure: Measurement of inhibition by compounds was performed using the HCV replicon system. Several different replicons encoding different HCV genotypes or mutations were used. In addition, potency measurements were made using different formats of the replicon assay, including different ways of measurements and different plating formats. See Jan M. Vrolijk et al., A replicon-based bioassay for the measurement of interferons in patients with chronic hepatitis C, 110 J. VIROLOGICAL METHODS 201 (2003); Steven S. Carroll et al., Inhibition of Hepatitis C Virus RNA Replication by 2′-Modified Nucleoside Analogs, 278(14) J. BIOLOGICAL CHEMISTRY 11979 (2003). However, the underlying principles are common to all of these determinations, and are outlined below. […]
To initiate an assay, replicon cells were plated in the presence of a dilution series of test compound in the absence of G418. […] For direct quantitation, RNA levels were measured by 32P-probe hybridization and protection, or in a TAQMAN-based assay and normalized to cellular cyclophilin A RNA levels. In some cases, luciferase activity was measured using a conventional luciferase assay. In all cases, EC50 determinations were calculated as a percent of a DMSO control by fitting the data to a four-parameter fit function.

Q: `O=C1N[C@H]2CCCCC/C=C\[C@@H]3C[C@@]3(C(=O)NS(=O)(=O)C3CC3)NC(=O)[C@@H]3C[C@H](CN3C2=O)Oc2nc3ccccc3nc2CCCCC[C@@H]2CCC[C@H]2O1` was tested. Which Ki (NS3/4A protease gt 1b) did it give?
A: 0.85 nM

Q: What about the Ki [1] of the same compound?
A: 8.7 nM

Q: And the Ki (NS3/4A protease gt 3a)?
A: 1.88 nM

Q: What about the EC50 (HCV gt 1b replicon; read-out: gt 1b Replicon EC50 10% FBS, 10% fetal bovine serum) of the same compound?
A: 4 nM

Q: What about the EC50 (HCV gt 1b replicon; read-out: gt 1b Replicon EC50 50% NHS, 50% normal human serum) of the same compound?
A: 22 nM

Where two headings read alike, the source gives them in different places.
